Data as given in PubChem BioAssay AID624099 (ICCB-Longwood, 2012)

Aim: 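Human genes that papillomavirus E2 requires to repress the HPV18 LCR promoter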 (primary screen)
System: human C33A cervical carcinoma cells (HPV-negative) stably expressing BPV1 E2 and an HPV18 LCR luciferase reporter
Reagents: siRNA pool against human genes, 40 nM
Timing: 72 h
Detection: 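HPV18 LCR reporter light per well, converted to plate-wise z-scores that exclude control wells, and averaged over triplicate plates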
Reading the numbers: mean z-score and z-score: higher = stronger reporter signal, weaker E2 silencing
Rule for the call: 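Hit if mean z-score reaches 2 and two or more of three replicate z-scores also reach 2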
The whole screen tested about 21,000 reagents; below is an unselected part. 497 of all reagents (2.4%) were called active. 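Higher z means weaker E2 silencing; only reporter increases were scored, and knock-downs that hurt cell survival may mask genuine repressor factors.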 Reagent sequences are not shown.

DAZAP2 (GeneID 9802) — mean z-score = 0.35; z-score, replicate A = 0.56; z-score, replicate B = 0.4; z-score, replicate C = 0.09; outcome = inactive
AGBL4 (GeneID 84871) — mean z-score = 0.42; z-score, replicate A = 0.48; z-score, replicate B = 0.59; z-score, replicate C = 0.18; outcome = inactive
TXNRD3 (GeneID 114112) — mean z-score = 0.34; z-score, replicate A = 0.73; z-score, replicate B = 0.08; z-score, replicate C = 0.2; outcome = inactive
VTCN1 (GeneID 79679) — mean z-score = -0.48; z-score, replicate A = -0.62; z-score, replicate B = -0.52; z-score, replicate C = -0.29; outcome = inactive
HOXD13 (GeneID 3239) — mean z-score = 0.09; z-score, replicate A = -0.04; z-score, replicate B = 0.34; z-score, replicate C = -0.03; outcome = inactive
RPS4X (GeneID 6191) — mean z-score = -2.93; z-score, replicate A = -3.04; z-score, replicate B = -3.02; z-score, replicate C = -2.73; outcome = inactive
TACO1 (GeneID 51204) — mean z-score = 2.88; z-score, replicate A = 2.25; z-score, replicate B = 2.86; z-score, replicate C = 3.52; outcome = active
ZBTB4 (GeneID 57659) — mean z-score = 0.66; z-score, replicate A = 0.56; z-score, replicate B = 1.57; z-score, replicate C = -0.14; outcome = inactive
DDX19B (GeneID 11269) — mean z-score = -0.9; z-score, replicate A = -0.86; z-score, replicate B = -0.9; z-score, replicate C = -0.93; outcome = inactive
OR4D1 (GeneID 26689) — mean z-score = 1.37; z-score, replicate A = 1.54; z-score, replicate B = 1.21; z-score, replicate C = 1.35; outcome = inactive
OTX1 (GeneID 5013) — mean z-score = 0.79; z-score, replicate A = 0.84; z-score, replicate B = 0.81; z-score, replicate C = 0.72; outcome = inactive
HIPK1 (GeneID 204851) — mean z-score = 0.31; z-score, replicate A = -0.04; z-score, replicate B = 0.38; z-score, replicate C = 0.6; outcome = inactive
TREM1 (GeneID 54210) — mean z-score = -1.77; z-score, replicate A = -1.74; z-score, replicate B = -1.78; z-score, replicate C = -1.79; outcome = inactive
OPN3 (GeneID 23596) — mean z-score = -0.07; z-score, replicate A = -0.13; z-score, replicate B = 0.04; z-score, replicate C = -0.12; outcome = inactive
RSPH3 (GeneID 83861) — mean z-score = -0.17; z-score, replicate A = 0.28; z-score, replicate B = -0.52; z-score, replicate C = -0.27; outcome = inactive
RANBP17 (GeneID 64901) — mean z-score = 0.79; z-score, replicate A = 0.54; z-score, replicate B = 0.98; z-score, replicate C = 0.85; outcome = inactive
KCNE2 (GeneID 9992) — mean z-score = 0.22; z-score, replicate A = 0.16; z-score, replicate B = 0.21; z-score, replicate C = 0.29; outcome = inactive
CES1P2 (GeneID 390732) — mean z-score = 0.49; z-score, replicate A = 0.37; z-score, replicate B = 0.53; z-score, replicate C = 0.56; outcome = inactive
MRFAP1L1 (GeneID 114932) — mean z-score = 0.42; z-score, replicate A = 0.35; z-score, replicate B = 0.67; z-score, replicate C = 0.24; outcome = inactive
LTBR (GeneID 4055) — mean z-score = -2.04; z-score, replicate A = -2.31; z-score, replicate B = -1.77; z-score, replicate C = -2.04; outcome = inactive
LOC389321 (retired record) (GeneID 389321) — mean z-score = 0.13; z-score, replicate A = -0.06; z-score, replicate B = 0.52; z-score, replicate C = -0.07; outcome = inactive

Quoted from the listing, 2 entries:
HOXD13 (GeneID 3239) — mean z-score = 0.09; z-score, replicate A = -0.04; z-score, replicate B = 0.34; z-score, replicate C = -0.03; outcome = inactive
RPS4X (GeneID 6191) — mean z-score = -2.93; z-score, replicate A = -3.04; z-score, replicate B = -3.02; z-score, replicate C = -2.73; outcome = inactive
